The text below walks through data of ChEMBL document CHEMBL4043195, “Development of water-soluble 3,5-dinitrophenyl tetrazole and oxadiazole antitubercular agents” (Bioorg Med Chem, 2017).

The test system of experiment [1] is Mycobacterium tuberculosis. The following applies: isolate 234/2005.
The test system of experiment [2] is Mycobacterium tuberculosis. The following applies: isolate Praha 4.

GENTAMICIN: the MIC>99 in experiment [1] came out at 0.25 µM; in experiment [2], 0.5 µM.
